Measured values from several laboratories, pooled; numbers as filed in NIAID ChemDB.

Shared fields: whole-cell or culture tests; species: HIV-2; method: cytopathic effect / MTT; measure: EC50

ECn is the concentration giving n% inhibition of infection, replication or growth.

S=c1[nH]c(-c2ccccc2)c(-c2ccccc2)n1Nc1cccc(Cl)c1 ; cells: MT-4 ; strain: ROD ; result: >36.31 µM
Cc1[nH]c(=S)n(Nc2cccc(Cl)c2)c1-c1cccc(C#N)c1 ; cells: MT-4 ; strain: ROD ; result: >32.1 µg/mL
COC(=O)c1c(C)[nH]c(=S)n1Nc1cccc(Cl)c1 ; cells: MT-4 ; strain: ROD ; result: >190 µM
COC(=O)/C=C1\S/C(=N/N=C/c2ccc(N(C)C)cc2)NC1=O ; cells: MT-4 ; strain: ROD ; result: >87.25 µM
COc1cccc(Nn2cnc(C)c2-c2ccccc2)c1 ; cells: MT-4 ; strain: ROD ; result: >34.44 µM
COC(=O)c1ccccc1S(=O)(=O)c1ccsc1NC=O ; cells: CEM + CEM/O ; strain: ROD ; result: 40 µg/mL
CCn1cc(C(=O)O)c(=O)c2cc(F)c(N3CCN(c4ccccc4OC)CC3)c(OC(F)F)c21 ; cells: MT-4 ; strain: EHO ; result: 0.5 µM
Cc1[nH]c(=S)n(Nc2ccccc2)c1C ; cells: MT-4 ; strain: ROD ; result: >181 µM
COC(=O)/C=C1\S/C(=N/N=C/c2cc(OC)c(O)c(OC)c2)NC1=O ; cells: MT-4 ; strain: ROD ; result: >14.5 µM
COc1c(Cl)cc(C(=CCCCCN[C@H]2CC[C@]3(C)C4CC[C@@]5(C)C(CC[C@@H]5C(C)CCCC(C)C)C4CC[C@H]3C2)c2cc(Cl)c(OC)c(C(=O)O)c2)cc1C(=O)O ; cells: CEM + CEM-SS ; strain: ROD ; result: >150 µM
CC(C)(C)[Si](C)(C)CCOCN1C=C(C#N)C(N)=NS1(=O)=O ; cells: MT-4 ; result: >400 µg/mL
NC(N)=NCCC[C@H](NC(=O)CCNC(=O)CN(CCNC(=O)CN(CCNC(=O)OCc1ccccc1)C(=O)Cn1cnc2c(=O)[nH]c(N)nc21)C(=O)Cn1cnc2c(N)ncnc21)C(=O)O ; cells: PBMC/D194 + PBMC ; result: >200 µM
COc1c(Cl)cc(C(=CCNC(=O)C[C@H]2CC[C@]3(C)C4CC[C@@]5(C)C(CC[C@@H]5CC(=O)NCC=C(c5cc(Cl)c(OC)c(C(=O)O)c5)c5cc(Cl)c(OC)c(C(=O)O)c5)C4CC[C@H]3C2)c2cc(Cl)c(OC)c(C(=O)O)c2)cc1C(=O)O ; cells: MT-4 ; strain: ROD ; result: 70 µM
Cc1ncn(Nc2ccc(F)cc2)c1-c1ccccc1 ; cells: MT-4 ; strain: ROD ; result: >30.82 µM
C[C@]12CCC3C(CC[C@H]4C[C@@H](CCC=C(c5cc(Cl)c(O)c(C(=O)O)c5)c5cc(Cl)c(O)c(C(=O)O)c5)CC[C@]34C)C1CC[C@@H]2CCC=C(c1cc(Cl)c(O)c(C(=O)O)c1)c1cc(Cl)c(O)c(C(=O)O)c1 ; cells: CEM + CEM-SS ; strain: ROD ; result: 74 µM
COC(=O)/C=C1\S/C(=N/N=C/c2ccccc2OCc2ccccc2)NC1=O ; cells: MT-4 ; strain: ROD ; result: >14.35 µM
C[C@H](Cn1cnc2c(N(C)C)ncnc21)OCP(=O)(O)O ; cells: MT-4 ; strain: ROD ; result: 0.4 ± 0.05 µg/mL
NC(N)=NCCC[C@H](NC(=O)CCNC(=O)CN(CCNC(=O)CN(CCNC(=O)OCc1ccccc1)C(=O)Cn1cnc2c(N)ncnc21)C(=O)Cn1cnc2c(=O)[nH]c(N)nc21)C(=O)O ; cells: PBMC/D194 + PBMC ; result: >200 µM
CC1=CC(=O)N(COCc2ccccc2)S(=O)(=O)N1COCc1ccccc1 ; cells: MT-4 ; result: >400 µg/mL
Nc1sccc1S(=O)(=O)c1ccccc1 ; cells: CEM + CEM/O ; strain: ROD ; result: 32 µg/mL
COC(=O)[C@H](C)NP(=O)(OC[C@@H]1C=C[C@H](n2cc(C)c(=O)[nH]c2=O)O1)Oc1ccccc1 ; cells: MT-4 ; strain: ROD ; result: 0.067 µM
CN(C)c1nc(N)nc2c1ncn2CCOCP(=O)(O)O ; cells: MT-4 ; strain: ROD ; result: 0.4 µg/mL
O=C(Nc1sccc1S(=O)(=O)c1ccc(Cl)cc1)C(F)(F)F ; cells: CEM + CEM/O ; strain: ROD ; result: >8 µg/mL
O=C(O)c1cc(C(c2ccc(O)c(C(=O)O)c2)c2ccc(O)c(C(=O)O)c2)ccc1O ; cells: MT-4 ; strain: ROD ; result: 8.3 µg/mL
N#Cc1cc2[nH]c3ccccc3c2n(-c2ccc([N+](=O)[O-])cc2)c1=O ; cells: MT-4 ; result: 6.31 µM
O=C(O)c1cc(Cc2cc(C(c3ccc(O)c(C(=O)O)c3)c3ccc(O)c(C(=O)O)c3)cc(C(=O)O)c2O)ccc1O ; cells: MT-4 ; strain: ROD ; result: 5.9 µg/mL
Cc1cccc(Nn2cnc(C)c2C)c1 ; cells: MT-4 ; strain: ROD ; result: >312 µM
COC(=O)/C=C1\S/C(=N/N=C/c2ccc(OC)cc2)NC1=O ; cells: MT-4 ; strain: ROD ; result: >72.1 µM
Cc1ccc(S(=O)(=O)c2ccsc2NC(=O)C(F)(F)F)cc1 ; cells: CEM + CEM/O ; strain: ROD ; result: >8 µg/mL
CCCCCCC(C)[C@H]1CCC2C3CC[C@H]4C[C@@H](CCC=C(c5cc(Cl)c(O)c(C(=O)O)c5)c5cc(Cl)c(O)c(C(=O)O)c5)CC[C@]4(C)C3CC[C@@]21C ; cells: MT-4 ; strain: ROD ; result: 4 µM
CC1=CC(=O)N(COCC[Si](C)(C)C(C)(C)C)S(=O)(=O)N1COCC[Si](C)(C)C(C)(C)C ; cells: MT-4 ; result: >400 µg/mL
C[C@H](Cn1cnc2c(NCCCC3CCCCC3)ncnc21)OCP(=O)(O)O ; cells: CEM ; strain: ROD ; result: 9.5 ± 3.5 µg/mL
NC(N)=NCCC[C@H](NC(=O)CCCCCNC(=O)CN(CCNC(=O)CN(CCNC(=O)OCc1ccccc1)C(=O)Cn1cnc2c(N)ncnc21)C(=O)Cn1cnc2c(=O)[nH]c(N)nc21)C(=O)O ; cells: PBMC/D194 + PBMC ; result: >200 µM
CC(=O)Nc1sc([N+](=O)[O-])cc1S(=O)(=O)c1ccc(F)cc1 ; cells: CEM + CEM/O ; strain: ROD ; result: >0.32 µg/mL
C[C@H](C[n+]1c[nH]c2c(Nc3ccccc3)nc(N)nc21)OCP(=O)(O)O ; cells: MT-4 ; strain: ROD ; result: 8 ± 2.9 µg/mL
COC(=O)[C@H](CCCN=C(N)N)NC(=O)CCNC(=O)CN(CCNC(=O)CN(CCNC(=O)OCc1ccccc1)C(=O)Cn1cnc2c(N)ncnc21)C(=O)Cn1cnc2c(=O)[nH]c(N)nc21 ; cells: PBMC/D194 + PBMC ; result: >200 µM
C=C(C)[C@@H]1CC[C@]2(C(=O)NCCCCCCCC(=O)N[C@@H](CC(C)C)[C@@H](O)CC(=O)O)CC[C@]3(C)[C@H](CC[C@@H]4[C@@]5(C)CC[C@H](O)C(C)(C)[C@@H]5CC[C@]43C)[C@@H]12 ; cells: MT-4 ; strain: EHO ; result: >10 µM
Nc1sccc1S(=O)(=O)c1ccccc1[N+](=O)[O-] ; cells: CEM + CEM/O ; strain: ROD ; result: >20 µg/mL
Nc1cc2c(=O)c(C(=O)O)cn(C3CC3)c2cc1N1CCN(c2nc3ccccc3s2)CC1 ; cells: MT-4 ; strain: ROD ; result: >0.076 µg/mL
CC(C)(C)[Si](C)(C)CCOCN1C=CC(=O)N(COCC[Si](C)(C)C(C)(C)C)S1(=O)=O ; cells: MT-4 ; result: >400 µg/mL
COC(=O)/C=C1\S/C(=N/N=C/c2cc([N+](=O)[O-])ccc2O)NC1=O ; cells: MT-4 ; strain: ROD ; result: >0.088 µM
CC(=O)Nc1sccc1S(=O)(=O)c1ccccc1[N+](=O)[O-] ; cells: CEM + CEM/O ; strain: ROD ; result: >1.6 µg/mL
CC1=CC(=O)NS(=O)(=O)N1COCc1ccccc1 ; cells: MT-4 ; result: >400 µg/mL
NS(=O)(=O)c1ccc(-c2c3nc(c(-c4ccc(S(N)(=O)=O)cc4)c4ccc([nH]4)c(-c4ccc(S(N)(=O)=O)cc4)c4nc(c(-c5ccc(S(N)(=O)=O)cc5)c5ccc2[nH]5)C=C4)C=C3)cc1 ; cells: MT-4 ; strain: ROD ; result: >5 µg/mL
Nc1nc(NC2CC2)c2ncn(CCOCP(=O)(O)O)c2n1 ; cells: CEM ; strain: ROD ; result: 0.16 µg/mL
Cc1cc(C)c(S(N)(=O)=O)c(C)c1-c1c2nc(c(-c3c(C)cc(C)c(S(N)(=O)=O)c3C)c3ccc([nH]3)c(-c3c(C)cc(C)c(S(N)(=O)=O)c3C)c3nc(c(-c4c(C)cc(C)c(S(N)(=O)=O)c4C)c4ccc1[nH]4)C=C3)C=C2 ; cells: MT-4 ; strain: ROD ; result: >80 µg/mL
Cc1ncn(Nc2cccc(Cl)c2)c1-c1cccc(Br)c1 ; cells: MT-4 ; strain: ROD ; result: 0.91 µM

For reference, 2 entries again:

SMILES,cells,strain,result
C[C@]12CCC3C(CC[C@H]4C[C@@H](CCC=C(c5cc(Cl)c(O)c(C(=O)O)c5)c5cc(Cl)c(O)c(C(=O)O)c5)CC[C@]34C)C1CC[C@@H]2CCC=C(c1cc(Cl)c(O)c(C(=O)O)c1)c1cc(Cl)c(O)c(C(=O)O)c1,CEM + CEM-SS,ROD,74 µM
Cc1[nH]c(=S)n(Nc2ccccc2)c1C,MT-4,ROD,>181 µM

Rows are shuffled and stem from different studies.